Measured values from several laboratories, pooled; numbers as filed in NIAID ChemDB.

Shared fields: tests in culture; agent: Rhinovirus

An empty or dashed field is not shown. A number after MIC or MFC names an inhibition level or a share of isolates. Lines come from different laboratories, so protocols vary. ECn is the concentration giving n% inhibition of infection, replication or growth.

structure | read-out | cell line | strain | method | value
Cc1ccc(C(=O)CCCCOc2ccc(C3=NCC(C)O3)cc2Cl)s1 | EC50 | HeLa | TYPE 2 | cytopathic effect | 1.48 µM
CCSc1nc2ccc(OCCC3CCN(c4ccc(C)nn4)CC3)cc2o1 | EC50 | MRC-5 | Serotype 2 | cytopathic effect | 0.002 µg/mL
COCc1cc(CCCOc2c(Cl)cc(-c3noc(C)n3)cc2Cl)on1 | EC50 | HeLa | Serotype 89 | cytopathic effect | 0.005 µg/mL
CCCCCCCCCCCCNc1nnc2c3ccccc3n(C)c2n1 | EC50 | WI-38 | 1059 | plaque count | 4 µg/mL
CCOc1noc2cc(OCCCCCc3cc(C)no3)ccc12 | EC50 | MRC-5 | Serotype 14 | cytopathic effect | 0.012 µg/mL
CN(C)c1nc(C(F)(F)F)nc2c1ncn2Cc1ccc(C(F)(F)F)cc1 | EC50 | M-HELA | Serotype 13 | plaque count | >8 µM
CC(=O)c1ccc(CCCOc2c(C)cc(-c3noc(C)n3)cc2C)o1 | EC50 | HeLa | Serotype 14 | cytopathic effect | 0.5 µM
CCc1nc(-c2cc(C)c(OCCCc3cc(COC)no3)c(C)c2)no1 | EC50 | HeLa | Serotype 2 | cytopathic effect | 0.006 µg/mL
Cc1cc(CCCCCOc2c(Cl)cc(C3=NCCO3)cc2Cl)on1 | EC50 | HeLa | TYPE 8 | plaque count | >6.2 µg/mL
Fc1cccc(Cn2cnc3c(Nc4cccc(F)c4)nc(C(F)(F)F)nc32)c1 | EC50 | M-HELA | Serotype 43 | plaque count | 6.3 µM
Cn1c2ccccc2c2nnc(NCCC(C)(C)O)nc21 | EC50 | WI-38 | 33342 | plaque count | 20 µg/mL
CS(=O)(=O)c1ccc(Oc2ccc(C(=O)c3ccccc3)cc2)nc1 | EC50 | HeLa | TYPE 39 | cytopathic effect | >10 µg/mL
CCO/N=C/c1ccc(OCCC2CCN(c3ccc(Cl)nn3)CC2)cc1 | EC50 | KB | 1-CV15 (ICAM-1 receptor group 11) | neutral red | 0.002 µM
CCC1COC(c2ccc(OCCCCCCC(=O)c3ccc(C)s3)cc2)=N1 | EC50 | HeLa | TYPE 14 | cytopathic effect | 0.5 µM
CSc1nsc(-c2ccc(OCCc3ccccc3)cc2)c1C#N | EC50 | HELA-OHIO | Serotype 9 (group B) | cytopathic effect | 5 µM
CS(=O)c1ccc(Cc2ccc(S(C)(=O)=O)cn2)cc1 | EC50 | HeLa | TYPE 2 | cytopathic effect | >10 µg/mL
Cc1cc(CCCCCOc2cc(Cl)c(-c3nnc(C)o3)c(Cl)c2)on1 | MIC80 | - | Serotype 21 | - | 0.0092 µg/mL
CS(=O)(=O)c1ccc(Cc2ccc(Cl)c(Cl)c2)nc1 | EC50 | HeLa | TYPE 1B | cytopathic effect | <0.3 µg/mL
COc1ccc(-c2cc(N3CCCCC3)no2)c(O)c1 | EC50 | HeLa | Serotype 14 | cytopathic effect | >364 µM
Cc1ccc(C(=O)CCCCOc2ccc(C3=N[C@@H](C)CO3)cc2)s1 | EC50 | HeLa | TYPE 2 | cytopathic effect | 2.8 µM
CCOc1ccc(-c2cc(N3CCCCC3)no2)c(O)c1 | EC50 | HeLa | Serotype 14 | cytopathic effect | >347 µM
CCOC(=O)c1ccc(OCCC2CCN(c3ccc(C)nn3)CC2)cc1 | EC50 | WI-38 | Serotype 34 | cytopathic effect | <0.1 µg/mL
COC(=O)C(Cc1ccc(OCCCCC(=O)c2ccc(C)s2)cc1)NC(C)=O | EC50 | HeLa | TYPE 2 | cytopathic effect | >86 µM
CCOC(=O)c1ccc(OCCC2CCN(c3ccc(C)nn3)CC2)cc1 | EC50 | - | Serotype 14 | - | <0.13 µM
Nc1ccc(Cn2cnc3c(Nc4cccc(F)c4)nc(C(F)(F)F)nc32)cc1 | EC50 | M-HELA | Serotype 5 | plaque count | >40 µM
CCOC(=O)/C=C/[C@H](C[C@@H]1CCNC1=O)NC(=O)[C@@H](CC(=O)[C@@H](NC(=O)c1cc(C)on1)C(C)C)Cc1ccc(F)cc1 | EC50 | OHIO HELA-I | Isolate 32 | cytopathic effect / visual reading | <0.01 µg/mL
CCS(=O)(=O)c1ccc(NCc2ccc(Cl)c(Cl)c2)nc1 | EC50 | HeLa | TYPE 2 | cytopathic effect | >10 µg/mL
CCOc1cc(OC)ccc1-c1cc(N(CC)CC)no1 | EC50 | HeLa | Serotype 2 | cytopathic effect | 1.7 µM
Cc1c(-c2ccccc2)n(-c2cccc(F)c2)c2ccc(C(C)C)cc2c1=O | EC50 | HELA-OHIO | 10/204-CV14 | cytopathic effect | 0.013 µg/mL
CS(=O)(=O)c1ccc(Cc2ccc(Cl)cc2)nc1 | EC50 | HeLa | TYPE 64 | cytopathic effect | 1.3 µg/mL
CN(C)c1nc(C(F)(F)F)nc2c1ncn2Cc1ccc(Cl)c(NC=O)c1 | EC50 | M-HELA | Serotype 19 | plaque count | >8 µM
CSc1nsc(-c2ccc(OCCCCOc3ccc([N+](=O)[O-])cc3)cc2)c1C#N | EC50 | HELA-OHIO | Serotype 45 (group A) | cytopathic effect | >0.5 µM
CN(C)c1nc(C(F)(F)F)nc2c1ncn2Cc1ccc(Cl)cc1Cl | EC50 | M-HELA | Serotype 5 | plaque count | >8 µM
Cc1cc(CCCCCOc2cc(Cl)c(-c3nnco3)c(Cl)c2)on1 | MIC50 | - | serotype 2 1A 1B 6 14 21 22 15 25 30 50 67 89 86 41 | - | 0.25 µg/mL
CCN(CC)c1cc(-c2ccc(OC)cc2OC)on1 | EC50 | HeLa | Serotype 51 (group B) | cytopathic effect | >362 µM
CCn1c2c(c(=O)c3cc(C(C)C)ccc31)Cc1ccccc1-2 | EC50 | HELA-OHIO | 3 (FEB) | cytopathic effect | 2.9 µg/mL
Cn1c2ccc(Cl)cc2c2n[nH]c(=S)nc21 | EC50 | WI-38 | 1059 | plaque count | 20 µg/mL
Cc1cc(CCCCCCCOc2ccc(C3=NCCO3)cc2)on1 | EC50 | HeLa | TYPE 2 | cytopathic effect | 2.35 µM
Cc1cc(CCCOc2c(C)cc(-c3noc(C(F)(F)F)n3)cc2C)on1 | EC90 | - | Serotype 2 | - | 0.05 µM
COc1ccc(-c2cc(N3CCCC3)no2)c(O)c1 | EC50 | HeLa | Serotype 9 (group B) | cytopathic effect | >384 µM
Cn1c2ccccc2c2n[nH]c(=S)nc21 | EC50 | WI-38 | 1059 | plaque count | 20 µg/mL
CS(=O)(=O)c1ccc(NCc2ccc(Cl)c(Cl)c2)nc1 | EC50 | HeLa | TYPE 29 | cytopathic effect | 1.3 µg/mL
CN(C)c1nc(C(F)(F)F)nc2c1ncn2Cc1ccc([N+](=O)[O-])cc1 | EC50 | M-HELA | TYPE 1B | plaque count | 0.07 µM
C#CCOc1cc(OC)ccc1-c1cc(N(CC)CC)no1 | EC50 | HeLa | Serotype 2 | cytopathic effect | 1 µM
CC(=O)c1coc(CCCOc2c(C)cc(-c3noc(C)n3)cc2C)c1 | EC50 | HeLa | Serotype 14 | cytopathic effect | 1.4 µM
CSc1nsc(-c2ccc(OCCCCOc3ccc(C#N)cc3)cc2)c1C#N | EC50 | HELA-OHIO | Serotype 86 (group A) | cytopathic effect | >2 µM
COC(=O)c1cc(CCCOc2c(C)cc(-c3noc(C)n3)cc2C)on1 | EC50 | HeLa | Serotype 89 | cytopathic effect | 0.003 µg/mL
Cc1c(-c2ccccc2)n(-c2ccc(F)cc2)c2ccc(C(C)C)cc2c1=O | EC50 | HELA-OHIO | 3 (FEB) | cytopathic effect | >2 µg/mL
Cn1c(O)c(N=NC(N)=S)c2ccccc21 | EC50 | WI-38 | 33342 | plaque count | 21 µg/mL
CCOc1nc2ccc(OCCC3CCN(c4ccc(C)nn4)CC3)cc2o1 | EC50 | MRC-5 | Serotype 2 | cytopathic effect | 0.003 µg/mL
CN(C)c1nc(C(F)(F)F)nc2c1ncn2Cc1ccc(F)cc1 | EC50 | M-HELA | Serotype 2 | plaque count | >8 µM
CCOc1nc2ccc(OCCC3CCN(c4nnc(C)s4)CC3)cc2o1 | EC50 | MRC-5 | Serotype 2 | cytopathic effect | 0.065 µg/mL
CCOC(=O)c1ccc(OCCOc2ccc(-c3snc(SC)c3C#N)cc2)cc1 | EC50 | HELA-OHIO | Serotype 15 (group B) | cytopathic effect | >2 µM
COc1nc2ccc(OCCC3CCN(c4ccc(C)nn4)CC3)cc2o1 | EC50 | MRC-5 | Serotype 14 | cytopathic effect | 0.02 µg/mL
CSc1nsc(-c2ccc(OCCOc3ccc(C#N)cc3)cc2)c1C#N | EC50 | HELA-OHIO | Serotype 14 (group A) | cytopathic effect | >2 µM
CCC(CO)Nc1nnc2c3ccccc3n(C)c2n1 | EC50 | WI-38 | HGP | plaque count | 100 µg/mL
CN(C)c1nc(C(F)(F)F)nc2c1ncn2Cc1cccc(F)c1 | EC50 | M-HELA | Serotype 5 | plaque count | >8 µM
N#Cc1cccnc1Oc1ccc(C(=O)c2ccccc2)cc1 | EC50 | HeLa | TYPE 64 | cytopathic effect | >10 µg/mL
CCOC(=O)c1ccc(OCCC2CCN(c3ccc(C)nn3)CC2)cc1 | EC50 | HELA-OHIO | Serotype 2 (group B) | cytopathic effect | 0.01 µM
Cc1ccc(C(=O)CCCCOc2ccc(C3=NC(C)(C)CO3)cc2)s1 | EC50 | HeLa | TYPE 2 | cytopathic effect | 10.8 µM

For reference, 6 entries again:

COC(=O)c1cc(CCCOc2c(C)cc(-c3noc(C)n3)cc2C)on1 ; read-out: EC50 ; cell line: HeLa ; strain: Serotype 89 ; method: cytopathic effect ; value: 0.003 µg/mL
CCO/N=C/c1ccc(OCCC2CCN(c3ccc(Cl)nn3)CC2)cc1 ; read-out: EC50 ; cell line: KB ; strain: 1-CV15 (ICAM-1 receptor group 11) ; method: neutral red ; value: 0.002 µM
Fc1cccc(Cn2cnc3c(Nc4cccc(F)c4)nc(C(F)(F)F)nc32)c1 ; read-out: EC50 ; cell line: M-HELA ; strain: Serotype 43 ; method: plaque count ; value: 6.3 µM
COc1ccc(-c2cc(N3CCCCC3)no2)c(O)c1 ; read-out: EC50 ; cell line: HeLa ; strain: Serotype 14 ; method: cytopathic effect ; value: >364 µM
CN(C)c1nc(C(F)(F)F)nc2c1ncn2Cc1cccc(F)c1 ; read-out: EC50 ; cell line: M-HELA ; strain: Serotype 5 ; method: plaque count ; value: >8 µM
CCOc1ccc(-c2cc(N3CCCCC3)no2)c(O)c1 ; read-out: EC50 ; cell line: HeLa ; strain: Serotype 14 ; method: cytopathic effect ; value: >347 µM